The target of the experiment is T1, cloned human μ opioid receptor (Homo sapiens, UniProt P35372).
T1 construct: This fragment includes the entire coding region of the human μ opioid receptor; expressed in transfected cells; host or cells: COS-7 (transient, pcDNA3)
It is filed as binding.

Chains of the proteins cited; added tags and fusions are not shown.
UniProt P35372, whole entry: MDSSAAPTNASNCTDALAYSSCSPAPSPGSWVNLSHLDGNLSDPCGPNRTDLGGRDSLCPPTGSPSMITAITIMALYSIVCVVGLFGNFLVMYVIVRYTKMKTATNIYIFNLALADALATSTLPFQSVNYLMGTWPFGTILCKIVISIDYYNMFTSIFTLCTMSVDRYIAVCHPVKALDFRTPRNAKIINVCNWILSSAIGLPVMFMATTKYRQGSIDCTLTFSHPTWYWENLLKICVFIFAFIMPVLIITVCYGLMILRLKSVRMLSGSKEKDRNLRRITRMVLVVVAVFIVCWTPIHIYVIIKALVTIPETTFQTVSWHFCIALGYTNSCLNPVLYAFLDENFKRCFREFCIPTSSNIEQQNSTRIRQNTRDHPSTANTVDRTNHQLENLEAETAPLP

Consider pertussis toxin [PTX], for which the “Decrease of specific [3H]DAMGO labelling of the human μ receptor” value is 79+/−8%.
